Here are results for one sequence from publication PMC8387031, “Structures of Substrate Complexes of Foamy Viral Protease-Reverse Transcriptase”.

The data set deals with MFV PR-RT full-length (marmoset foamy virus) (UniProt D5JWV1). Kind of data set: GF/MALS. Particulars: 2:1 protein:NA, 0.5 mM EDTA, peaks 171.0 kDa (dimer, major) and 131.8 kDa (monomer), GF/MALS: 20 mM HEPES pH 7.0, 250 mM NaCl, 5% glycerol, 1 mM DTT, cryo-EM: 150 mM NaCl, 20 mM HEPES pH 7.0, 1 mM DTT, recombinant protein.

Construct, isoform or probe ends are uncertain for at least one entry.

Take “GTGAGCGAACAGAGTGCGACACCTGATTCCATG / TCATGGAATCAGGTGTCGACTCTGTTC [GF/MALS dsDNA]”: the binding result is reported as “binds”.
